Anti-infective test results gathered from many reports (values: NIAID ChemDB through PubChem).

Common to all: whole-cell or culture tests; organism: Aspergillus fumigatus; endpoint: EC50

Blank or dashed fields: not listed here. Conditions beyond the fields shown may differ between rows. ECn: concentration that inhibits the pathogen or its effect by n%.

smiles	strain	method	value
C[n+]1c2ccccc2cc2[nH]c3c(Br)cccc3c21.[I-]	ATCC 90906	resazurin	>20 µg/mL
O=Cc1cc(-c2ccc(F)cc2)no1	Clinical isolates		39.74 µg/mL
COc1cc2ccnc3c2c(c1OC(=O)c1cccc(C)c1)N(C)C=C3			>15 µg/mL
COc1ccc(N(CCCCCC2CCCCC2)c2ccc[n+](C)c2)cc1.[I-]	ATCC 90906	resazurin	>20 µg/mL
O=Cc1cc(-c2ccc(Cl)cc2Cl)on1	Clinical isolates		38.82 µg/mL
O/N=C/c1ccc[n+](Cc2cc(C[n+]3cccc(/C=N/O)c3)on2)c1.[Br-].[Br-]		broth dilution	>20 µg/mL
O=Cc1cc(-c2ccc([N+](=O)[O-])cc2)no1	Clinical isolates		>50 µg/mL
C[n+]1c2ccc(Cl)cc2cc2c1c1ccccc1n2CCCCCC1CCCCC1.[I-]	ATCC 90906	resazurin	0.8 µg/mL
COc1cc2ccnc3c2c(c1OC(=O)c1ccc(C(C)(C)C)cc1)N(C)C=C3			10 µg/mL
O/N=C/c1cccc[n+]1Cc1ccc(Br)s1.[Cl-]		broth dilution	>20 µg/mL
C[n+]1c2ccc(Cl)cc2cc2[nH]c3ccccc3c21	ATCC 90906	resazurin	>10 µg/mL
COc1cc2ccnc3c2c(c1OC(=O)c1ccc(C#N)cc1)N(C)C=C3			>15 µg/mL
C[n+]1cccc(N(CCCCCC2CCCCC2)c2ccccc2C(F)(F)F)c1.[I-]	ATCC 90906	resazurin	>20 µg/mL
COc1cccc(C(=O)Oc2c(OC)cc3ccnc4c3c2N(C)C=C4)c1			>15 µg/mL
Cc1ccc(-c2noc(C)c2C=O)cc1	Clinical isolates		37.86 µg/mL
COc1cc2ccnc3c2c(c1OC(=O)N1CCCC1)N(C)C=C3			>15 µg/mL
NC(=O)c1cc[n+](Cc2ccc(C[n+]3ccc(C(N)=O)cc3)o2)cc1.[Br-].[Br-]		broth dilution	>20 µg/mL